The list shows a part of the results, in another mix than the full data. Active and inactive are the calls of the source. Cut-off read from the data, not from the text of the source: active = CPE inhibition mostly above about 9.1% (no sharp cut-off); inactive = mostly below about 7.2%.

A short description of the test: Dengue virus cytopathic effect inhibitors, cell-based, CPE readout, HTS (AID 540333). Conditions: Dengue virus CPE inhibition in host cells, at 20 µM; active compounds read high. Background: Cytopathic effects are the visible damage that an infection or toxin causes in cultured cells.
Consider `Cc1cccc(C)c1OP(C)(=O)Nc1ccc(SC(F)(F)F)cc1` (stereo not drawn), for which the CPE inhibition is inactive: 3.17%.
For the compound `CC1=NCCc2c1[nH]c1ccccc21.O=[N+]([O-])c1cc([N+](=O)[O-])c(O)c([N+](=O)[O-])c1`, the CPE inhibition result is “inactive”.
Consider `CC(C)c1ccc(OP(C)(=O)Nc2ccc(SC(F)(F)F)cc2)cc1` (stereo not drawn), for which the CPE inhibition was inactive: 5.01%.
